Laboratory results: the supplement of paper PMC12637763
Changes are numbered by the printed parent chain. This is one part of the list. Env chains of viruses from a treatment-interruption trial, translated from the printed DNA. IC50 / IC80 of two broadly neutralizing antibodies; lower = more sensitive virus; >50 µg/ml means not reached and <0.001 µg/ml is below the lowest dose. No active / inactive call.

B1: HIV-1 Env, rebound clone, antibody arm (protein)
chain: MRVRGIPRNWQHLWTWWTLTLGLVIICSTSDNLWVTVYYGVPVWEDADTPLFCASDAKAYSTEKHNVWATHACVPTDPNPQELHLENVTEEFNMWKNNMVEQMHEDIISLWDEALKPCVKLTPLCVTLNCVSLNCSSVNKNVTNGNNSTECAEERENLRNCSFNVTTELKDKKEQTYALFYKLDVVQLNSGNNNNNTYRLINCNVSAIKQACPKVTFDPIPIHYCAPAGFAILKCNDKNFNGTGQCHNVSTVLCTHGIKPVVSTQLLLNGSLSEDEIVIKSENITDNAKSIIVQLNSTVSITCSRPNNNTRKSIRIGPGQVFYAQGDIIGDIRQAHCNVNRGNWTKVMQEVKGQLQKIFNKNITFNSSTGGDLEITTHSFNCRGEFFYCNTTGLFDDTLFNNNNTNDTSPITLPCKIKQIVRMWQRVGQAMYAPPIAGEITCISNITGLLLTRDGGNTTNASNETFRPGGGNMRDNWRSELYKYKVVKIKPLGVAPTKARRRVVQREKRAVGLGAVFLGFLGTAGSTMGAASITLTVQVRQLLSGIVQQQSNLLRAIEAQQHLLQLTVWGIKQLQARVLAVERYLKDQQLLGIWGCSGKLICTTNVPWNTSWSNKSYNEIWDNMTWMQWDKEVRNYSQQIYDLIQESQTQQEKNEQELLALDKWTSLWSWFDISSWLWYIKIFIMIVGGLIGLRIVFAVLSIVKRVRQGYSPLSFQTLTHHQREPDRPEGIEEGGGEQDKDRSIRLVSGFLPLAWDDVRSLCLFLYHRLRDFILIAARTLELLGRSCLQGLRLGREGLKYLWNRLVYWGQELKNSAINLFDTAAIVVANWTDRVIEIAQGIGRAILNIPRRIRQGLERALL
B2: HIV-1 Env, rebound clone, antibody arm (protein)
chain: MKVKGTKRNYQHLWRWGIMLLGILMICSAADKFWVTVYYGVPVWKEASTTLFCASDAKAYDTEVHNVWATHACVPTDPNPQEIFLENVTEDFNMWENNMVEQMHEDVISLWDQSLKPCVKLTPLCVTLNCTDLKNVTESGNATATGGNNNRTVENEGEIKNCSFNITTSIRDKVTKEYALFNALDVVPIEDSNDNSSNGGNYSSYRMIHCNTSTITQACPKVSFEPIPIHYCTPAGFAILKCNNNTFSGKGPCNNVSTVQCTHGIRPVVSTQLLLNGSLAEEEIVIRSKNFSQNTDIIIVQLNESVIINCTRPNNNTRRGVHIGPGRAFYATGDIIGDIRRAYCNISRAEWNKTLGRVAEKLREQFPNKTIVFNQSSGGDPEIATHSFNCGGEFFYCYTSKLFNSTWNDTEGKVEEGDGNITFPCRIKQIINLWQEVGKAMYAPPISGIIKCESNITGLLLTRDGGNDNNTNEIFRPWGGNMKDNWRSELYKYKVVKIEPIGVAPTKAKRRVVQREKRAVGALGAMFLGFLGAAGSTMGAASLTLTVQARLLLSGIVQQQNNLLRAIEAQQHMLQLTVWGIKQLQARVLAVERYLRDQQLLGIWGCSGKLICTTAVPWNDSWSNNKTYDDIWENMTWMAWEKEIDNYTGIIYNLLEISQNQQEKNEQELLELDKWASLWNWFDITHWLWYIKIFIMIVGGLIGLRIVFTVLSIINRVRQGYSPLSFQTHLLTSRGPDRPEGIEEEGGEQDRGRSIRLVDGFLALFWDDLRSLCLFSYHRLRDLLLIAARIVELLGRRGWGILKYWWSLLQYWSQELNKSAISLLNATAIAVAEGTDRIIEVVQRAGRAILHIPVRIRQGLERALQ
B3: HIV-1 Env, rebound clone, antibody arm (protein)
chain: B2 chain with F694C, A845T
B4: HIV-1 Env, rebound clone, antibody arm (protein)
chain: MKVKGTKRNYQHLWRWGIMLLGILMICSAADKFWVTVYYGVPVWKEASTTLFCASDAKAYDTEVHNVWATHACVPTDPNPQEIFLENVTEDFNMWENNMVEQMHEDVISLWDQSLKPCVKLTPLCVTLNCTDLKNVTESGNATATGGNNNRTVENEGEIKNCSFNITTNALDVVPIEDSNDNSSNGGNYSSYRMIHCNTSTITQACPKVSFEPIPIHYCTPAGFAILKCNNNTFSGKGPCNNVSTVQCTHGIRPVVSTQLLLNGSLAEEEIVIRSKNFSQNTDIIIVQLNESVIINCTRPNNNTRRGVHIGPGRAFYATGDIIGDIRRAYCNISRAEWNKTLGRVAEKLREQFPNKTIVFNQSSGGDPEIATHSFNCGGEFFYCYTSKLFNSTWNDTEGKVEEGDGNITFPCRIKQIINLWQEVGKAMYAPPISGIIKCESNITGLLLTRDGGNDNNTNEIFRPWGGNMKDNWRSELYKYKVVKIEPIGVAPTKAKRRVVQREKRAVGALGAMFLGFLGAAGSTMGAASLTLTVQARLLLSGIVQQQNNLLRAIEAQQHMLQLTVWGIKQLQARVLAVERYLRDQQLLGIWGCSGKLICTTAVPWNDSWSNNKTYDDIWENMTWMAWEKEIDNYTGIIYNLLEISQNQQEKNEQELLELDKWASLWNWFDITHWLWYIKIFIMIVGGLIGLRIVFTVLSIINRVRQGYSPLSFQTHLLTSRGPDRPEGIEEEGGEQDRGRSIRLVDGFLALFWDDLRSLCLFSYHRLRDLLLIAARIVELLGRRGWGILKYWWSLLQYWSQELNKSAISLLNATAIAVAEGTDRIIEVVQRTGRAILHIPVRIRQGLERALQ
B5: HIV-1 Env, rebound clone, antibody arm (protein)
chain: MKVKGTKRNYQHLWRWGIMLLGILMICSAADKFWVTVYYGVPVWKEASTTLFCASDAKAYDTEVHNVWATHACVPTDPNPQEIFLENVTEDFNMWENNMVEQMHEDVISLWDQSLKPCVKLTPLCVTLNCTDLKNVTESGNATATGGNNNRTVENEGEIKNCSFNITTSIRDKVTKEYALFNALDVVPIEDSNDNSSNGGNYSSYRMIHCNTSTITQACPKVSFEPIPIHYCTPAGFAILKCNNNTFSGKGPCNNVSTVQCTHGIRPVVSTQLLLNGSLAEEEIVIRSKNFSQNTDIIIVQLNESVIINCTRPNNNTRRGVHIGPGRAFYATGDIIGDIRRAYCNISRAEWNKTLGRVAEKLREQFPNKTIVFNQSSGGDPEIATHSFNCGGEFFYCYTSKLFNSTWNDTEGKVEEGDGNITFPCRIKQIINLWQEVGKAMYAPPISGIIKCESNITGLLLTRDGGNDNNTNEIFRPWGGNMKDNWRSELYKYKVVKIEPIGVAPTKAKRRVVQREKRAVGALGAMFLGFLGAAGSTMGAASLTLTVQARLLLSGIVQQQNNLLRAIEAQQHMLQLTVWGIKQLQARVLAVERYLRDQQLLGIWGCSGKLICTTAVPWNDSWSNNKTYDDIWENMTWMAWEKEIDNYTGIIYNLLEISQNQQEKNEQELLELDKWAGLWNWFDITHWLWYIKIFIMIVGGLIGLRIVFTVLSIINRVRQGYSPLSFQTHLLTSRGPDRPEGIEEEGGEQDRGRSIRLVDGFLALFWDDLRSLCLFSYHRLRDLLLIAARIVELLGRRGWGILKYWWSLLQYWSQELNKSAISLLNATAIAVAEGTDRIIEVVQRAESYPPHTCKNKTGLGKGFAITWGASGQNAAGWNGLK
B6: HIV-1 Env, rebound clone, antibody arm (protein)
chain: B2 chain with L589P

Assays:
[1] = target: antibody 10-1074; test: neutralization IC50; higher = virus less sensitive to the antibody
Procedure: (§1)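 Pseudovirus bearing the Env chain mixed with antibody, from 50 µg/ml in fivefold dilutions, on TZM-bl reporter cells, in duplicate.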

[2] = target: antibody 3BNC117; test: as above
Procedure: as §1

[3] = target: antibody 10-1074; test: neutralization IC80; higher = virus less sensitive to the antibody
Procedure: as §1

[4] = target: antibody 3BNC117; test: as above
Procedure: as §1

| Binder | neutralization IC50 [1] | neutralization IC50 [2] | neutralization IC80 [3] | neutralization IC80 [4] |
| --- | --- | --- | --- | --- |
| B1 | > 50 µg/mL | 0.135 µg/mL | > 50 µg/mL | 0.543 µg/mL |
| B2 | 0.253 µg/mL | > 50 µg/mL | 0.706 µg/mL | > 50 µg/mL |
| B3 | 0.092 µg/mL | > 50 µg/mL | 0.488 µg/mL | > 50 µg/mL |
| B4 | 0.173 µg/mL | > 50 µg/mL | 1.07 µg/mL | > 50 µg/mL |
| B5 | 0.274 µg/mL | > 50 µg/mL | 1.27 µg/mL | > 50 µg/mL |
| B6 | 0.402 µg/mL | > 50 µg/mL | 1.77 µg/mL | > 50 µg/mL |
